Compound potency records, mixed from different reports. Data source: NIAID ChemDB in PubChem.

Shared fields: tests in culture; organism: HIV-1; cells: CEM; measure: EC50

Conditions beyond the fields shown may differ between rows. An empty or dashed field is not shown. ECn: concentration that inhibits the pathogen or its effect by n%.

{"SMILES": "C#C[C@H](O)C1=C[C@@H](n2cnc3c(N)ncnc32)[C@H](O)[C@@H]1O", "read by": "cytopathic effect", "result": ">40 µg/mL"}
{"SMILES": "Clc1ccc(C2ON=C(c3ccccc3)N2C23CC4CC(CC(C4)C2)C3)cc1", "read by": "cytopathic effect / XTT", "result": ">6.3 µM"}
{"SMILES": "COc1ccc(S(=O)(=O)N(CC(C)C)C[C@@H](O)CCN(CC2CCCC2)S(=O)(=O)c2ccc(N)cc2)cc1", "strain": "IIIB", "read by": "p24", "result": "<1 µM"}
{"SMILES": "OCC(CO)OCc1cc(I)c(F)cc1F", "read by": "cytopathic effect / MTT", "result": ">500 µg/mL"}
{"SMILES": "Cc1[nH]c2ccc3c(c2c(=O)c1O[C@@H]1O[C@H](CO)[C@@H](O)[C@H](O)[C@H]1O)[C@@H]1CC[C@H](O)[C@@]3(c2ccccc2)O1", "read by": "MTT", "result": ">100 µM"}
{"SMILES": "COc1c(N2CCN(CN3C(=O)C(=Nc4ccc(S(=O)(=O)Nc5nc(C)cc(C)n5)cc4)c4ccccc43)C(C)C2)c(F)cc2c(=O)c(C(=O)O)cn(C3CC3)c12", "strain": "IIIB", "read by": "cytopathic effect / XTT", "result": ">133 µM"}
{"SMILES": "CC(C)OC(=O)c1cc(NC(=S)OC(C)C)ccc1Cl", "strain": "IIIB", "changes": "RT-V179D", "read by": "syncytia", "result": "0.33 µM"}
{"SMILES": "CC(C)c1c(Sc2ccccc2)n(COCCO)c(=O)[nH]c1=O", "strain": "IIIB", "changes": "Nevirapine resistant (RT Y181C)", "read by": "syncytia", "result": "2.7 µM"}
{"SMILES": "C=C[C@H](O)C1=C[C@@H](n2cnc3c(N)ncnc32)[C@H](O)[C@@H]1O", "read by": "cytopathic effect", "result": ">200 µg/mL"}
{"SMILES": "CCC(=O)Oc1ccc(NC(=O)C2=C(C)OCCS2)cc1C(=O)OC(C)C", "strain": "IIIB", "read by": "syncytia", "result": "4.5 µg/mL"}
{"SMILES": "COc1ccc(S(=O)(=O)N(CC(C)C)CC(O)CNc2ccccc2C(=O)NC(C)(C)C)cc1", "strain": "IIIB", "read by": "p24", "result": "<1 µM"}
{"SMILES": "Fc1cccc(C2ON=C(c3ccccc3)N2C23CC4CC(CC(C4)C2)C3)c1", "read by": "cytopathic effect / XTT", "result": ">6.3 µM"}
{"SMILES": "O=C(N[C@@H](Cc1ccccc1)[C@H](O)CN(CC1CCCC1)S(=O)(=O)c1ccc([N+](=O)[O-])cc1)O[C@@H]1CCOC1", "strain": "IIIB", "read by": "p24", "result": "<1 µM"}
{"SMILES": "S=C(Cc1ccccn1)NCc1ccccc1Cl", "strain": "WILD TYPE", "read by": "XTT", "result": ">200 µM"}
{"SMILES": "COc1ccc(S(=O)(=O)NC(Cc2ccccc2)C(F)(F)C(=O)[C@@H](Cc2ccccc2)NC(=O)OC2COCOC2)cc1", "strain": "IIIB", "read by": "p24", "result": "<1 µM"}
{"SMILES": "CCCC(CCC)(NP(=O)(OC[C@@H]1C=C[C@H](n2cc(C)c(=O)[nH]c2=O)O1)Oc1ccccc1)C(=O)OC", "result": "≥50 µM"}
{"SMILES": "NS(=O)(=O)c1ccc(OC(=O)c2ccccc2SSc2ccccc2C(=O)Oc2ccc(S(N)(=O)=O)cc2)cc1", "read by": "XTT", "result": ">162 µM"}
{"SMILES": "COc1ccc(S(=O)(=O)N(CC(O)CN(Cc2ccccc2)C(=O)NC(C)(C)C)CC2CCCC2)cc1", "strain": "IIIB", "read by": "p24", "result": "<1 µM"}
{"SMILES": "O=C(O)CSC1=NNC2(C(=O)N1)c1ccccc1-c1ccccc12", "read by": "cytopathic effect / XTT", "result": ">63 µM"}
{"SMILES": "CC1=C(C(=O)Nc2ccc(Cl)c(C(=O)OC(C)C)c2)SCCO1", "strain": "IIIB", "read by": "syncytia", "result": "0.015 µg/mL"}
{"SMILES": "COc1ccc(S(=O)(=O)N(CC(C)C)C[C@@H](O)[C@H](Cc2ccccc2)NC(=O)O[C@H]2CCOC2)cc1", "strain": "LAI", "read by": "p24 / ELISA", "result": "0.202 µM"}
{"SMILES": "OCCOCc1cc(I)c(F)cc1F", "read by": "cytopathic effect / MTT", "result": ">500 µg/mL"}
{"SMILES": "FC(F)(F)c1ccc(C2ON=C(c3ccccc3)N2C23CC4CC(CC(C4)C2)C3)cc1", "read by": "cytopathic effect / XTT", "result": ">2 µM"}
{"SMILES": "CC(C)c1c(Sc2ccccc2)n(COCCO)c(=S)[nH]c1=O", "strain": "IIIB TIBO R82913-resistant (RT K103N)", "changes": "RT-K103N", "read by": "syncytia", "result": ">10 µM"}
{"SMILES": "COc1ccc(S(=O)(=O)N(CC2CCCC2)C(=O)C(=O)C(=O)[C@@H](Cc2ccccc2)NC(=O)OC(C)(C)C)cc1", "strain": "IIIB", "read by": "p24", "result": "<1 µM"}
{"SMILES": "Cc1cc(COC(CO)CO)c(F)cc1F", "read by": "cytopathic effect / MTT", "result": ">500 µg/mL"}
{"SMILES": "C=C[C@@H](O)C1=C[C@@H](n2cnc3c(N)ncnc32)[C@H](O)[C@@H]1O", "read by": "cytopathic effect", "result": ">40 µg/mL"}
{"SMILES": "COc1c(N2CCN(CN3C(=O)C(=Nc4ccc(S(=O)(=O)Nc5nc(C)cc(C)n5)cc4)c4cc(F)ccc43)C(C)C2)c(F)cc2c(=O)c(C(=O)O)cn(C3CC3)c12", "strain": "IIIB", "read by": "cytopathic effect / XTT", "result": ">135 µM"}
{"SMILES": "O=C1NC(SC(SC2=NNC3(C(=O)N2)c2ccccc2-c2ccccc23)=C(SC2=NNC3(C(=O)N2)c2ccccc2-c2ccccc23)SC2=NNC3(C(=O)N2)c2ccccc2-c2ccccc23)=NNC12c1ccccc1-c1ccccc12", "read by": "cytopathic effect / XTT", "result": ">63 µM"}
{"SMILES": "Brc1cccc(C2ON=C(c3ccccc3)N2C23CC4CC(CC(C4)C2)C3)c1", "read by": "cytopathic effect / XTT", "result": ">200 µM"}
{"SMILES": "CCC(C)[C@@H](C(=O)O)N(C)C(=O)c1ccccc1SSc1ccccc1C(=O)N(C)[C@H](C(=O)O)C(C)CC", "read by": "XTT", "result": ">100 µM"}
{"SMILES": "O=c1ccn([C@@H]2O[C@H](CO)[C@H]3CC=CC[C@H]32)c(=O)[nH]1", "strain": "LAI", "result": "67 µM"}
{"SMILES": "COC(=O)[C@H](C)NP(=O)(OC[C@@H]1C=C[C@H](n2cc(C)c(=O)[nH]c2=O)O1)Oc1ccccc1", "result": "0.075 µM"}
{"SMILES": "COc1ccc(N2CCN(CN3C(=O)C(=Nc4ccc(S(=O)(=O)Nc5nc(C)cc(C)n5)cc4)c4cc(F)ccc43)CC2)cc1", "strain": "IIIB", "read by": "cytopathic effect / XTT", "result": ">35.2 µM"}
{"SMILES": "CC(C)c1c(Sc2ccccc2)n(COCc2ccccc2)c(=O)[nH]c1=O", "strain": "IIIB", "changes": "RT-Y181C", "read by": "syncytia", "result": "0.3 µM"}
{"SMILES": "O=C1N=C2SC=C(NC(=S)Nc3ccccc3)N2NC12c1ccccc1-c1ccccc12", "read by": "cytopathic effect / XTT", "result": ">20 µM"}
{"SMILES": "CC(C)CN(C[C@@H](O)[C@H](Cc1ccccc1)NC(=O)OC(C)(C)C)S(=O)(=O)c1ccccc1F", "strain": "IIIB", "read by": "p24", "result": "<10 µM"}
{"SMILES": "O=C(O)CCNC(=O)c1ccccc1SSc1ccccc1C(=O)NCCC(=O)O", "read by": "XTT", "result": "7.8 µM"}
{"SMILES": "CCn1cc(C(=O)O)c(=O)c2cc(F)c(N3CCN(CN4C(=O)C(=Nc5ccc(S(=O)(=O)Nc6nc(C)cc(C)n6)cc5)c5cc(F)ccc54)C(C)C3)c(F)c21", "strain": "IIIB", "read by": "cytopathic effect / XTT", "result": ">115 µM"}
{"SMILES": "CC(C)CN(C[C@@H](O)[C@H](Cc1ccccc1)NC(=O)OC[C@@H]1COC(=O)N1)S(=O)(=O)c1ccc(F)cc1", "strain": "IIIB", "read by": "p24", "result": "<1 µM"}
{"SMILES": "S=C1N=C(Cl)C2(NN1)c1ccccc1-c1ccccc12", "read by": "cytopathic effect / XTT", "result": ">20 µM"}
{"SMILES": "O=c1[nH]c(=O)n(C[C@@H]2O[C@H](CO)[C@H]3CC=CC[C@H]32)cc1F", "strain": "LAI", "result": ">100 µM"}
{"SMILES": "OCC(CO)OCc1ccc(F)cc1F", "read by": "cytopathic effect / MTT", "result": ">500 µg/mL"}
{"SMILES": "Nc1cccc(S(=O)(=O)N(CC2CCCC2)C[C@@H](O)CN(CCc2ccccc2)C(=O)O[C@@H]2COC3OCCC32)c1", "strain": "IIIB", "read by": "p24", "result": "<0.1 µM"}
{"SMILES": "CC1=C(C(=O)Nc2ccc(C)c(C(=O)OC(C)C)c2)SCCO1", "strain": "Nevirapine-resistant (RT V106A)", "changes": "RT-V106A", "read by": "syncytia", "result": ">10 µg/mL"}
{"SMILES": "C=CCNC(=O)NC(=O)CSC1=NNC2(C(=O)N1)c1ccccc1-c1ccccc12", "read by": "cytopathic effect / XTT", "result": ">63 µM"}
{"SMILES": "CCc1c(Cc2cc(C)cc(C)c2)n(COCCO)c(=O)[nH]c1=O", "strain": "IIIB", "changes": "RT-E138K", "read by": "syncytia", "result": "0.2 µM"}
{"SMILES": "CCC[C@H](NP(=O)(OC[C@@H]1C=C[C@H](n2cc(C)c(=O)[nH]c2=O)O1)Oc1ccccc1)C(=O)OC", "result": "0.42 µM"}
{"SMILES": "CCOCn1c(Cc2cc(C)cc(C)c2)c(CC)c(=O)[nH]c1=O", "strain": "IIIB TIBO R82913-resistant (RT K103N)", "changes": "RT-K103N", "read by": "syncytia", "result": "0.15 µM"}
{"SMILES": "CC(=O)Nc1ccc(S(=O)(=O)N(CC(C)C)C[C@@H](O)[C@H](Cc2ccccc2)NC(=O)OCc2cccnc2)cc1", "strain": "IIIB", "read by": "p24", "result": "<1 µM"}
{"SMILES": "CNC(=O)c1ccccc1SSc1ccccc1C(=O)NC", "read by": "XTT", "result": ">11 µM"}
{"SMILES": "N#Cc1ccc(C2ON=C(c3ccccc3)N2C23CC4CC(CC(C4)C2)C3)cc1", "read by": "cytopathic effect / XTT", "result": ">63 µM"}
{"SMILES": "CC1=C(C(=O)Nc2cc(C(=O)OC(C)C)c(C)cc2F)SCCO1", "strain": "PYR-resistant (RT Y181C)", "changes": "RT-Y181C", "read by": "syncytia", "result": ">10 µg/mL"}
{"SMILES": "CCc1c(Sc2cc(C)cc(C)c2)n(COCCO)c(=O)[nH]c1=O", "strain": "IIIB TIBO R82913-resistant (RT K103N)", "changes": "RT-K103N", "read by": "syncytia", "result": "0.35 µM"}
{"SMILES": "CCC1=C(C(=O)Nc2ccc(Cl)c(C(=O)OC(C)C)c2)SCCO1", "strain": "TIBO-resistant (RT L100I)", "changes": "RT-L100I", "read by": "syncytia", "result": "0.6 µg/mL"}
{"SMILES": "CCc1c(Sc2cc(C)cc(C)c2)n(COCc2ccccc2)c(=S)[nH]c1=O", "strain": "IIIB", "changes": "RT-E138K", "read by": "syncytia", "result": "0.01 µM"}
{"SMILES": "CCCOC(=O)c1ccc(C)c(NC(=O)C2=C(C)OCCS2)c1", "strain": "TIBO-resistant (RT L100I)", "changes": "RT-L100I", "read by": "syncytia", "result": ">10 µg/mL"}
{"SMILES": "CC(C)CN(C[C@@H](O)[C@H](Cc1ccccc1)NC(=O)OC(C)(C)C)S(=O)(=O)c1ccccc1", "strain": "IIIB", "read by": "p24", "result": "<10 µM"}
{"SMILES": "CC(=O)OC[C@H]1OC(n2cnc3c(Cl)nc(Cl)nc32)[C@@H]2CC=CC[C@H]12", "strain": "LAI", "result": "5.9 µM"}

Repeating the first 3 entries:

SMILES	strain	changes	read by	result
C#C[C@H](O)C1=C[C@@H](n2cnc3c(N)ncnc32)[C@H](O)[C@@H]1O			cytopathic effect	>40 µg/mL
Clc1ccc(C2ON=C(c3ccccc3)N2C23CC4CC(CC(C4)C2)C3)cc1			cytopathic effect / XTT	>6.3 µM
COc1ccc(S(=O)(=O)N(CC(C)C)C[C@@H](O)CCN(CC2CCCC2)S(=O)(=O)c2ccc(N)cc2)cc1	IIIB		p24	<1 µM